# The list shows a part of the results, in another mix than the full data. Some structures show a salt or complex split into parts, the way the source records it. Calls of active or inactive are those of the source. Cut-off read from the data, not from the text of the source: active = inhibition above about 11%; inactive = the rest.
# Experiment: growth loss of phage-infected E. coli, primary screen, RecBCD inhibitor project, absorbance, with phage, HTS (AID 651602)
# Settings: at 11.9 µM, active compounds read high
row,Structure (SMILES),inhibition
1,O=C(OCCN1CCN(CCOCc2ccccc2)CC1)C(O)(c1ccccc1)c1ccccc1,inactive: 1.56%
2,O=C(OC1CN2CCC1CC2)c1ccc([N+](=O)[O-])cc1 (centres undefined),inactive: 3.3%
3,COc1ccc2c(c1O)-c1c(O)c(OC)cc3c1[C@H](C2)[N+](C)(C)CC3.O=[N+]([O-])c1cc([N+](=O)[O-])c([O-])c([N+](=O)[O-])c1[O-],inactive: 2.84%
4,O=[N+]([O-])c1cc([N+](=O)[O-])c(Nc2ccc(Cl)cc2)c([N+](=O)[O-])c1,inactive: -2.02%
5,CC(C)c1ccc(OP(C)(=O)Nc2ccc(SC(F)(F)F)cc2)cc1 (centres undefined),inactive: 2.45%
6,CP(=O)(Nc1ccccc1F)Oc1ccccc1 (centres undefined),inactive: -2.35%
7,CCN(CC)CCCOC(=O)C(O)(c1ccccc1)C1CCCCC1 (centres undefined),inactive: 0.7%
8,Cc1c([N+](=O)[O-])cc([N+](=O)[O-])c(Br)c1[N+](=O)[O-],inactive: 1.25%
9,CCCCCOc1ccc(NP(C)(=O)Oc2ccc(Cl)cc2Cl)cc1 (centres undefined),inactive: 1.23%
10,O=[N+]([O-])c1cc([N+](=O)[O-])c(OC2CCCCC2O)c([N+](=O)[O-])c1 (centres undefined),inactive: 2.69%
11,CP(=O)(Nc1ccccc1)Oc1ccc(F)cc1 (centres undefined),inactive: 1.39%
12,CCN(CC)CCCNc1ccccc1[N+](=O)[O-].O=[N+]([O-])c1cc([N+](=O)[O-])c(O)c([N+](=O)[O-])c1,inactive: 0.23%
13,COc1ccc(OP(C)(=O)Nc2ccc(SC(F)(F)F)cc2)cc1 (centres undefined),inactive: 6.22%
14,CCOC(=O)c1ccc(NP(C)(=O)Oc2ccc(F)cc2)cc1 (centres undefined),inactive: 1.19%
15,O=[N+]([O-])c1cc([N+](=O)[O-])c(NCC2CCS(=O)(=O)C2)c([N+](=O)[O-])c1 (centres undefined),inactive: 3.25%
16,Cc1cc(-c2cccc3ccccc23)c(C)cn1.O=[N+]([O-])c1cc([N+](=O)[O-])c(O)c([N+](=O)[O-])c1,inactive: 4.59%
17,O=[N+]([O-])c1ccc(OP2(=O)COCCO2)cc1 (centres undefined),inactive: 1.91%
18,Cc1c(C(c2ccc3c(c2)OCO3)c2c(C)n(C)n(-c3ccccc3)c2=O)c(=O)n(-c2ccccc2)n1C.O=[N+]([O-])c1cc([N+](=O)[O-])c(O)c([N+](=O)[O-])c1,inactive: -1.23%
19,COc1ccc(OP(C)(=O)Nc2cccc(Br)c2)cc1 (centres undefined),inactive: 1.39%
20,COc1ccc(NP(C)(=O)Oc2ccccc2OC)cc1 (centres undefined),inactive: 3.1%
21,CN(C)CCOC(=O)C(O)(c1ccccc1)C1CCCCC1 (centres undefined),inactive: -0.82%
22,CP(=O)(Nc1ccc2c(c1)OCCO2)Oc1ccccc1 (centres undefined),inactive: 2.22%
23,O=[N+]([O-])c1cc([N+](=O)[O-])c(C(F)(F)F)c([N+](=O)[O-])c1O,inactive: 0.23%
24,Cc1ccccc1NP(C)(=O)Nc1ccccc1C,inactive: 1.19%
25,CP(=O)(Nc1ccc(SC(F)(F)F)cc1)Oc1ccc(F)cc1 (centres undefined),inactive: 1%

row,Structure (SMILES),inhibition
1,CCOP(=O)(CC)OCC,inactive: 3.05%
2,CCOP(C)(=S)SCC(=O)NC(C)(CC)C(=O)O (centres undefined),inactive: 2.01%
3,CP(=O)(Nc1ccc(Cl)cc1)Oc1ccc(F)cc1 (centres undefined),inactive: -0.55%
4,CC(C)(C)c1ccc(OP(C)(=O)O)cc1,inactive: 1.74%
5,COc1ccccc1OP(C)(=O)Nc1ccccc1Br (centres undefined),inactive: 4.73%
6,CN(C)C(=O)c1c([N+](=O)[O-])cc([N+](=O)[O-])cc1[N+](=O)[O-],inactive: 4.09%
7,COc1ccc(OP(C)(=O)Nc2ccc(Br)cc2)cc1 (centres undefined),inactive: 2.61%
8,CCN(CC)CC(O)COC(=O)C(O)(c1ccccc1)C1CCCCC1 (centres undefined),inactive: 0.93%
9,CCc1ccc(OP(C)(=O)Nc2cccnc2)cc1 (centres undefined),inactive: 1.07%
10,CP(=O)(Oc1ccccc1)N1CCOC1=O (centres undefined),inactive: 2.38%
11,O=C(OCCCN1CCCC1)C(O)(c1ccccc1)C1CCCCC1 (centres undefined),inactive: -0.84%
12,COc1ccccc1OP(C)(=O)Nc1c(C)n(C)n(-c2ccccc2)c1=O (centres undefined),inactive: 1.59%
13,Nc1ccc2c(ccc3cccnc32)n1.O=[N+]([O-])c1cc([N+](=O)[O-])c(O)c([N+](=O)[O-])c1,inactive: -0.08%
14,CP(=O)(OC12CC3CC(CC(C3)C1)C2)OC12CC3CC(CC(C3)C1)C2,inactive: 2.81%
15,CCOC(=O)c1ccc(NP(C)(=O)Oc2ccc(Cl)cc2)cc1 (centres undefined),inactive: 2.62%
16,CP(=O)(OCCOc1ccccc1)OCCOc1ccccc1,inactive: 1.07%
17,CCCCCCCCCCCCCCCC1C[N+](C)(C)CCOP(C)(=O)O1 (centres undefined),inactive: 4.5%
18,CP(=O)(Nc1ccc(Cl)cc1Cl)Oc1ccccc1 (centres undefined),inactive: -1.62%
19,Cc1cc(C)cc(OP(C)(=O)Nc2cccc(C(F)(F)F)c2)c1 (centres undefined),inactive: 2.73%
20,O=C1C(O)=C([N+](=O)[O-])C(=O)C(O)=C1[N+](=O)[O-],inactive: 1.17%
21,COc1ccc(OP(C)(=O)Nc2ccccc2Br)cc1 (centres undefined),inactive: 3.24%
22,COc1ccccc1OP(C)(=O)Nc1ccc(C)c(C)c1 (centres undefined),inactive: 2.23%
23,O=[N+]([O-])c1cc([N+](=O)[O-])c(Nc2ccccn2)c([N+](=O)[O-])c1,inactive: 2.5%
24,Cc1c(NP(C)(=O)Oc2ccc(C(C)C)cc2)c(=O)n(-c2ccccc2)n1C (centres undefined),inactive: 0.92%
25,CCc1ccc(OP(C)(=O)O)cc1,inactive: 1.56%

row,Structure (SMILES),inhibition
1,COc1ccccc1OP(C)(=O)Nc1ccc(C)cc1C (centres undefined),inactive: 0%
2,CP(=O)(Nc1ccccn1)Oc1ccccc1 (centres undefined),inactive: -1.56%
3,COc1ccccc1OP(C)(=O)Nc1ccc(Br)cc1 (centres undefined),inactive: 2.47%
4,CN(C)CCOC(=O)C(O)(c1ccccc1)C1CCCC1 (centres undefined),inactive: 1.14%
5,COc1ccc(OP(C)(=O)Nc2ccccn2)cc1 (centres undefined),inactive: 3.28%
6,COc1ccccc1-c1ccccn1.O=[N+]([O-])c1cc([N+](=O)[O-])c(O)c([N+](=O)[O-])c1,inactive: 2.96%
7,CCN(CC)CCCOC(=O)C(O)(c1ccccc1)c1ccccc1,inactive: 1.66%
8,CCOC(=O)c1ccc(NP(C)(=O)Oc2ccccc2)cc1 (centres undefined),inactive: 3.95%
9,Cc1ccc(NP(C)(=O)Oc2ccccc2)c(C)c1 (centres undefined),inactive: 1.42%
10,COc1ccccc1OP(C)(=O)Nc1ccc(C)cc1 (centres undefined),inactive: 0.83%
11,COc1ccc(OP(C)(=O)Nc2cccc(F)c2)cc1 (centres undefined),inactive: 2.91%
12,COc1ccccc1OP(C)(=O)Nc1cc(Cl)ccc1C (centres undefined),inactive: 2.79%
13,Cc1cc(C)cc(OP(C)(N)=O)c1 (centres undefined),inactive: 1.08%
14,O=[N+]([O-])c1cc([N+](=O)[O-])c(Nc2cccnc2)c([N+](=O)[O-])c1,inactive: -3.27%
15,Cc1cccc(C)c1OP(C)(N)=O (centres undefined),inactive: 2.59%
16,CC(C)(C)c1ccc(OP(C)(=O)Nc2ccc(SC(F)(F)F)cc2)cc1 (centres undefined),inactive: 3.41%
17,O=[N+]([O-])c1ccc2c(c1)C=Nc1ccccc1O2,inactive: 4.62%
18,CP(=S)(Nn1cnnc1)Oc1ccccc1 (centres undefined),inactive: 0.88%
19,COc1ccccc1OP(C)(=O)Nc1ccccc1 (centres undefined),inactive: 5.17%
20,CP(=O)(Nc1ccccc1Br)Oc1ccccc1 (centres undefined),inactive: 2.93%
21,CCOP(C)(=S)SCC(=O)NC(C)C(=O)O (centres undefined),inactive: 1.67%
22,O=[N+]([O-])c1cc([N+](=O)[O-])c(O)c([N+](=O)[O-])c1.c1ccc(Oc2ccncc2)cc1,inactive: -0.23%
23,CCOC(=O)c1ccc(NP(C)(=O)Oc2ccc(OC)cc2)cc1 (centres undefined),inactive: 4.46%
24,CP(=O)(Nc1ccccn1)Oc1ccc(Cl)cc1 (centres undefined),inactive: 0.08%
25,CP(=O)(Oc1ccccc1)OC(c1ccccc1)C(F)(F)F (centres undefined),inactive: -0.38%

row,Structure (SMILES),inhibition
1,CP(=O)(Nc1ccc(SC(F)(F)F)cc1)Oc1ccc(Cl)cc1 (centres undefined),inactive: 0.54%
2,Cc1cccc(C)c1OP(C)(=O)Nc1ccc(SC(F)(F)F)cc1 (centres undefined),inactive: 0.15%
3,Cc1cc(C)cc(OP(C)(=O)Nc2ccc(SC(F)(F)F)cc2)c1 (centres undefined),inactive: 1.03%
4,CCc1ccc(OP(C)(=O)N2CCN(c3ccc([N+](=O)[O-])cc3)CC2)cc1 (centres undefined),inactive: -2.42%
5,CP(=O)(NC(=O)Nc1ccccc1)Oc1ccccc1 (centres undefined),inactive: 3.27%
6,O=[N+]([O-])c1cc([N+](=O)[O-])c(-c2cnn(-c3ccccc3)c2)c([N+](=O)[O-])c1,inactive: 3.79%
7,Cc1nc2ccc3ccccc3c2s1.O=[N+]([O-])c1cc([N+](=O)[O-])c(O)c([N+](=O)[O-])c1,inactive: 0.16%
8,O=[N+]([O-])c1cc([N+](=O)[O-])c(-n2nnc3ccccc32)c([N+](=O)[O-])c1,inactive: 3.65%
9,CN(Cc1cccnc1)C(=O)COc1ccc(Cl)c(Cl)c1.O=[N+]([O-])c1cc([N+](=O)[O-])c(O)c([N+](=O)[O-])c1,inactive: 4.65%
10,CN1CCCCC1COC(=O)C1(O)c2ccccc2CCc2ccccc21 (centres undefined),inactive: 1.62%
11,COc1ccccc1OP(C)(=O)Nc1c(C)cccc1C (centres undefined),inactive: 3.09%
12,CP(=O)(Nc1ccc(SC(F)(F)F)cc1)Oc1ccccc1 (centres undefined),inactive: 5.59%
13,CCCOc1ccc(NP(C)(=O)Oc2ccc(Cl)cc2)cc1 (centres undefined),inactive: 5.98%
14,COc1ccc(-c2ccccn2)cc1.O=[N+]([O-])c1cc([N+](=O)[O-])c(O)c([N+](=O)[O-])c1,inactive: 2.22%
15,CCOC(=O)C(CC)C1=NC(C)(C)Cc2ccccc21.O=[N+]([O-])c1cc([N+](=O)[O-])c(O)c([N+](=O)[O-])c1 (centres undefined),inactive: 1.66%
16,O=[N+]([O-])c1cc([N+](=O)[O-])c(Nc2nnnn2CCO)c([N+](=O)[O-])c1,inactive: -1.19%
17,CC1=NCCc2c1[nH]c1ccccc21.O=[N+]([O-])c1cc([N+](=O)[O-])c(O)c([N+](=O)[O-])c1,inactive: 1.4%
18,O=C(O)c1cccc(Nc2c([N+](=O)[O-])cc([N+](=O)[O-])cc2[N+](=O)[O-])c1,inactive: 1.38%
19,CP(=O)(Nc1cccc(Br)c1)Oc1ccccc1 (centres undefined),inactive: 3.25%
20,Cc1cc(C)cc(OP(C)(=O)Nc2ccccn2)c1 (centres undefined),inactive: 0.24%
21,Cc1ccc(C)c(NP(C)(=O)Oc2ccccc2)c1 (centres undefined),inactive: 2.03%
22,COc1ccccc1OP(C)(=O)Nc1cccc(Br)c1 (centres undefined),inactive: 0%
23,Cc1cc(C)cc(OP(C)(=O)Nc2ccc(C)cc2C)c1 (centres undefined),inactive: 0.23%
24,CCOC(=O)c1ccc(NP(C)(=O)Oc2cc(C)cc(C)c2)cc1 (centres undefined),inactive: 2.45%
